# Measurements published in patent US9938510B2, “Photobacterium sp. alpha-2-6-sialyltransferase variants” (The Regents of the University of California, priority 2014, dated 2018).
# B1: A366G: Photobacterium sp. JH-ISH-224 α2-6-sialyltransferase residues 15-501, A366G point mutation, C-terminal His6; SEQ ID NO: 2 (protein)
# chain: CNNSEENTQSIIKNDINKTIIDEEYVNLEPINQSNISFTKHSWVQTCGTQQLLTEQNKESISLSVVAPRLDDDEKYCFDFNGVSNKGEKYITKVTLNVVAPSLEVYVDHASLPTLQQLMDIIKSEEENPTAQRYIAWGRIVPTDEQMKELNITSFALINNHTPADLVQEIVKQAQTKHRLNVKLSSNTAHSFDNLVPILKELNSFNNVTVTNIDLYDDGSAEYVNLYNWRDTLNKTDNLKIGKDYLEDVINGINEDTSNTGTSSVYNWQKLYPANYHFLRKDYLTLEPSLHELRDYIGDSLKQMQWDGFKKFNSKQQELFLSIVNFDKQKLQNEYNSSNLPNFVFTGTTVWGGNHEREYYAKQQINVINNAINESSPHYLGNSYDLFFKGHPGGGIINTLIMQNYPSMVDIPSKISFEVLMMTDMLPDAVAGIASSLYFTIPAEKIKFIVFTSTETITDRETALRSPLVQVMIKLGIVKEENVLFWA
# modifications: C-terminal His6; Synthetic Psp26ST(15-501) A366G
# B2: W365A: Psp26ST(15-501)-His6 with W365A point mutation; SEQ ID NO: 6 (protein)
# chain: B1 chain with W351A, G352A
# modifications: C-terminal His6; Synthetic Psp26ST(15-501) W365A
# B3: W365G: Psp26ST(15-501)-His6 with W365G point mutation; SEQ ID NO: 4 (protein)
# chain: B1 chain with W351G, G352A
# modifications: C-terminal His6; Synthetic Psp26ST(15-501) W365G
# B4: W365S: Psp26ST(15-501)-His6 with W365S point mutation; SEQ ID NO: 8 (protein)
# chain: B1 chain with W351S, G352A
# modifications: C-terminal His6; Synthetic Psp26ST(15-501) W365S
# B5: R153G: Psp26ST(15-501)-His6 with R153G point mutation; SEQ ID NO: 10 (protein)
# chain: B1 chain with R139G, G352A
# modifications: C-terminal His6; Synthetic Psp26ST(15-501) R153G
# Test: Expression and Ni2+-NTA purification of soluble recombinant protein; SDS-PAGE of lysates
# Set-up: species or system Escherichia coli
# Description: The plasmids containing mutant genes were transformed into Escherichia coli BL21 (DE3). The Escherichia coli cells were cultured in LB-rich media (10 g L^−1 tryptone, 5 g L^−1 yeast extract, and 10 g L^−1 NaCl) supplemented with ampicillin (100 μg mL^−1). Overexpression of the mutants was achieved by adding 0.3 mM of isopropyl-1-thio-β-D-galactopyranoside (IPTG) to the Escherichia coli culture when its OD600 nm reached 0.8. The induced culture was incubated at 20° C. for 20 h with vigorous shaking at 250 rpm in a C25KC incubator shaker (New Brunswick Scientific, Edison, N.J.). His6-tagged mutant proteins were purified from the cell lysate. To obtain cell lysate, the cell pellet harvested by centrifugation at 4000 rpm for 2 h was resuspended in 20 mL (for cells obtained from one liter culture) of lysis buffer (pH 8.0, 100 mM Tris-HCl containing 0.1% Triton X-100). Lysozyme (50 μg mL^−1) and DNaseI (3 μg mL^−1) were added to the resuspended cells followed by shaking at 37° C. for 60 min. The lysate was obtained as the supernatant after centrifugation at 11,000 rpm for 20 min. Purification of His6-tagged proteins from the lysate was achieved using 10 mL column packed with Ni^2+-NTA agarose. The column was pre-equilibrated with 8 column volumes of binding buffer (5 mM imidazole, 0.5 M NaCl, 50 mM Tris-HCl pH 7.5). After loading the sample, the column was washed with 8 column volumes of the binding and 8 column volumes of washing buffer (20 mM imidazole, 0.5 M NaCl, 50 mM Tris-HCl pH 7.5). Protein was eluted using 8 column volumes of the elute buffer (200 mM imidazole, 0.5 M NaCl, 50 mM Tris-HCl pH 7.5). The fractions containing the purified enzyme were collected and stored at 4° C. Protein concentrations were quantified by bicinchoninic acid (BCA) protein assay kit according to manufacturer's instruction using bovine serum albumin (BSA) as the protein standard. The wild-type enzyme and A366G mutant were expressed, purified, and quantified in duplicates or triplets for at least three times.
# SDS-PAGE was performed in a 12% Tris-glycine gel using Bio-Rad Mini-protein III cell gel electrophoresis unit (Bio-Rad, Hercules, Calif.) at DC=150V. Bio-Rad Precision Plus Protein Standards (10-250 kD) were used as molecular weight standards. Gels were stained with Coomassie Blue. Cell lysates from the wild-type enzyme and the mutants were prepared exactly the same and the same volume (˜30 mL) of the lysate was obtained for each construct. The same volume of the lysate was used to prepare samples for SDS-PAGE and the same volume (10 μL) was loaded to the gel.
Molecule,"expression level of soluble recombinant protein in cell lysates compared to wild-type (SDS-PAGE, FIG. 4)",increase of expression level over wild-type
B1,significantly improved expression level,over a six-fold increase
B2,significantly improved expression level,–
B3,significantly improved expression level,–
B4,significantly improved expression level,–
B5,significantly improved expression level,–

# Positions count from the first letter of the chain named. In names and notes the source's numbering stands. Some compounds share one wording; it may come from a single statement.
